From patent US10441588B2, “Methods and compositions for treating bacterial infection” (Curators of the University of Missouri, priority 2012, dated 2019)

How the values were obtained:
TSST-1 = TSST-1 production in S. aureus
pyocyanin = experiment: Pyocyanin production in P. aeruginosa

Question: How did the “production of TSST-1 in S. aureus” value (TSST-1) turn out when `COc1ccc2c(c1)-c1nc(SCC(F)(F)F)n(C)c(=O)c1C(C)(C)C2` [CCG-211790, 9-methoxy-3,5,5-trimethyl-2-((2,2,2-trifluoroethyl)thio)-5,6-dihydrobenzo[h]quinazolin-4(3H)-one] was run?
Answer: Its value is “reduction”.

Question: What about the “production of pyocyanin in P. aeruginosa” value (pyocyanin) of the same compound?
Answer: Its value is “reduction”.
